Pooled drug test results. Numbers come from NIAID ChemDB, via PubChem.

Common to all: growth or infection tests; species: Rhinovirus; read by: cytopathic effect; read-out: EC50

Conditions beyond the fields shown may differ between rows. ECn: concentration that inhibits the pathogen or its effect by n%.

SMILES | cells | strain | result
Cc1ccc(N2CCC(CCOc3ccc4oc(C)nc4c3)CC2)nn1 | MRC-5 | Serotype 1A | 0.12 µg/mL
COc1ccc(-c2cc(N3CCCC3)no2)c(O)c1 | HeLa | Serotype 59 (group B) | 145 µM
CCS(=O)(=O)c1ccc(Cc2ccc(Cl)c(Cl)c2)nc1 | HeLa | TYPE 64 | 0.6 µg/mL
CSc1nsc(-c2ccc(OCc3ccccc3)cc2)c1C#N | HELA-OHIO | Serotype 70 (group A) | 25 µM
CS(=O)(=O)c1ccc(Cc2ccc(Cl)c(Cl)c2)nc1 | HeLa | TYPE 44 | 5 µg/mL
N#Cc1cccnc1Oc1ccc(C(=O)c2ccccc2)cc1 | HeLa | TYPE 1A | >10 µg/mL
CCc1ccc(CCCOc2cc(C)c(-c3noc(C(F)F)n3)c(C)c2)nn1 | HeLa | serotypes 3 4 5 9 16 18 38 66 75 67 | 0.26 µg/mL
COc1ccc(-c2snc(SC)c2C#N)cc1 | HELA-OHIO | Serotype 89 (group B) | >12 µM
COC(=O)c1cc(CCCOc2c(C)cc(-c3noc(C)n3)cc2C)on1 | HeLa | Serotype 6 | 0.136 µg/mL
CS(=O)(=O)c1ccc(Oc2ccc(C(=O)c3ccccc3)cc2)nc1 | HeLa | TYPE 1B | >5 µg/mL
CCOC(=O)c1ccc(OCCC2CCN(c3ccc(C)nn3)CC2)cc1 | HeLa | Serotype 54 | <0.1 µg/mL
CCCOc1nc2ccc(OCCC3CCN(c4ccc(C)nn4)CC3)cc2o1 | MRC-5 | Serotype 2 | 0.002 µg/mL
C#CCOc1cc(OC)ccc1-c1cc(N(CC)CC)no1 | HeLa | Serotype 14 | >40 µM
CSc1nsc(-c2ccccc2)c1C#N | HELA-OHIO | Serotype 39 (group B) | >80 µM
Cc1c(-c2ccccc2)n(-c2cccc(F)c2)c2ccc(C(C)C)cc2c1=O | HELA-OHIO | 16/11757 | 0.03 µg/mL
CC(=O)Oc1ccc(CCCOc2cc(C)c(-c3noc(C)n3)c(C)c2)nn1 | HeLa | serotypes 3 4 5 9 16 18 38 66 75 67 | 0.2 µg/mL
CS(=O)c1ccc(Cc2ccc(S(C)(=O)=O)cn2)cc1 | HeLa | TYPE 2 | >10 µg/mL
CCOc1cc(OC)ccc1-c1cc(N(CC)CC)no1 | HeLa | Serotype 2 | 1.7 µM
CCOC(=O)c1ccc(OCCCOc2ccc(-c3snc(SC)c3C#N)cc2)cc1 | HELA-OHIO | Serotype 51 (group B) | >2 µM
CCn1c2c(c(=O)c3cc(C(C)C)ccc31)Cc1ccccc1-2 | HELA-OHIO | 50/A2#58 | 0.2 µg/mL
CS(=O)(=O)c1ccc(NCc2ccc(Cl)c(Cl)c2)nc1 | HeLa | TYPE 2 | 0.6 µg/mL
Cc1c(-c2ccccc2)n(-c2ccc(F)cc2)c2ccc(C(C)C)cc2c1=O | HELA-OHIO | 3 (FEB) | >2 µg/mL
CSc1nsc(-c2ccc(OCCCOc3ccc(C#N)cc3)cc2)c1C#N | HELA-OHIO | Serotype 85 (group B) | >2 µM
CCOc1nc2ccc(OCCC3CCN(c4nnc(C)c(C)n4)CC3)cc2o1 | MRC-5 | Serotype 14 | 0.198 µg/mL
CCOC(=O)c1ccc(OCCOc2ccc(-c3snc(SC)c3C#N)cc2)cc1 | HELA-OHIO | Serotype 72 (group A) | >2 µM
CCOc1nc2ccc(OCCC3CCN(c4ccc(Cl)nn4)CC3)cc2o1 | MRC-5 | Serotype 14 | 0.015 µg/mL
CCCc1ccc(CCCOc2cc(C)c(-c3noc(C4CC4)n3)c(C)c2)nn1 | HeLa | serotypes 3 4 5 9 16 18 38 66 75 67 | 0.05 µg/mL
CCOC(=O)c1ccc(OCCC2CCN(c3ccc(C)nn3)CC2)cc1 | HELA-OHIO | Serotype 14 (group A) | 0.04 µM
CS(=O)(=O)c1ccc(Cc2ccc(Cl)cc2)nc1 | HeLa | TYPE 2 | 2.5 µg/mL
CCOc1nc2ccc(OCCC3CCN(c4cc(C)c(Cl)nn4)CC3)cc2o1 | MRC-5 | Serotype 14 | 0.039 µg/mL
Cc1nc(-c2cc(C)c(OCCCc3cc(C(F)(F)F)no3)c(C)c2)no1 | HeLa | Serotype 22 | 0.032 µg/mL
CCOc1ncnc2cc(OCCC3CCN(c4ccc(C)nn4)CC3)ccc12 | MRC-5 | Serotype 14 | 0.12 µg/mL
CSc1nsc(-c2ccc(OCCCCOc3ccc([N+](=O)[O-])cc3)cc2)c1C#N | HELA-OHIO | Serotype 2 (group B) | >0.5 µM
COCc1cc(CCCOc2c(Cl)cc(-c3noc(C)n3)cc2Cl)on1 | HeLa | Serotype 50 | 0.074 µg/mL
CCN(CC)c1cc(-c2ccc(O)cc2O)on1 | HeLa | Serotype 14 | >121 µM
Cc1cc(OCCCc2ccc(C=O)nn2)cc(C)c1-c1noc(C(F)F)n1 | HeLa | serotypes 3 4 5 9 16 18 38 66 75 67 | 0.05 µg/mL
CSc1nsc(-c2ccc(OCCOc3ccccc3)cc2)c1C#N | HELA-OHIO | Serotype 86 (group A) | 0.3 µM
CCN(CC)c1cc(-c2ccc(OC)cc2OC)on1 | HeLa | Serotype 45 (group A) | >362 µM

For reference, 5 entries again:

SMILES | cells | strain | result
CS(=O)c1ccc(Cc2ccc(S(C)(=O)=O)cn2)cc1 | HeLa | TYPE 2 | >10 µg/mL
CS(=O)(=O)c1ccc(Cc2ccc(Cl)c(Cl)c2)nc1 | HeLa | TYPE 44 | 5 µg/mL
CSc1nsc(-c2ccccc2)c1C#N | HELA-OHIO | Serotype 39 (group B) | >80 µM
CCOc1nc2ccc(OCCC3CCN(c4nnc(C)c(C)n4)CC3)cc2o1 | MRC-5 | Serotype 14 | 0.198 µg/mL
CCOC(=O)c1ccc(OCCCOc2ccc(-c3snc(SC)c3C#N)cc2)cc1 | HELA-OHIO | Serotype 51 (group B) | >2 µM